Compound potency records, mixed from different reports. Data source: NIAID ChemDB in PubChem.

Common to all: whole-cell or culture tests; species: HIV-1; cells: C8166; read-out: EC50

An empty or dashed field is not shown.

SMILES	strain	mutations	read by	value
CC(=O)O[C@@]12[C@H](OC(=O)/C=C/c3ccc4c(c3)OCO4)[C@@H](C)[C@@]3(O)[C@@H](C=C(CO)C[C@]4(O)C(=O)C(C)=C[C@@H]34)[C@@H]1C2(C)C	IIIB	-	p24 / ELISA	0.0225 µM
CCN1c2ncc(CCOc3ccc(-c4ccc(C(=O)O)o4)cc3C)cc2C(=O)N(C)c2cccnc21	-	RT-K103N Y181C	p24	>0.05 µM
COCCOC(C(=O)O)c1c(C)nc2ccc(Br)cc2c1-c1ccc(Cl)cc1	-	-	luciferase / reporter gene	<20 µM
CCN1C(=O)NC(=O)C(C(C)C)C1CC1CC(C)CC(C#N)C1=O	-	Y181C	p24 / ELISA	0.06551 µM
Cc1nc2ccc(Cl)cc2c(-c2ccccc2)c1C(OC(C)C)C(=O)O	-	-	luciferase / reporter gene	<20 µM
CCN1c2ncc(CCOc3ccc(NC(=O)CC(C)(C)C(=O)O)cc3C)cc2C(=O)N(C)c2cccnc21	IIIB	-	p24	<0.01 µM
CCCCCCCCCCCCCCCCCCCC(=O)O[C@@H]1[C@@H](C)[C@@]2(O)[C@@H](C=C(CO)C[C@]3(O)C(=O)C(C)=C[C@@H]23)[C@@H]2C(C)(C)[C@]12OC(=O)CCCCCCCCCCCCCCCCCCC	IIIB	-	p24 / ELISA	87.4 µM
CCCC(C(=O)O)c1c(C)nc2ccc(Cl)cc2c1-c1ccc(CC#N)cc1	-	-	luciferase / reporter gene	<20 µM
CC/C=C\C/C=C\C/C=C\C/C=C\C/C=C\CCCC(=O)O[C@@H]1[C@@H](C)[C@@]2(O)[C@@H](C=C(CO)C[C@]3(O)C(=O)C(C)=C[C@@H]23)[C@@H]2C(C)(C)[C@]12O	IIIB	-	p24 / ELISA	5.325 µM
Cc1nc2ccc(Br)cc2c(-c2ccc(Cl)cc2)c1C(OCCCC#N)C(=O)O	-	-	luciferase / reporter gene	<20 µM
CCN1c2ncc(CCOc3ccc(C(=O)Nc4ccc(CC(=O)O)cc4)cc3C)cc2C(=O)Nc2c(C)ccnc21	IIIB	-	p24	0.01–0.05 µM
CC1=C[C@H]2[C@@]3(O)[C@H](C)[C@@H](OC(=O)CCCCC4SCC5NC(=O)NC54)[C@]4(OC(=O)CCCCC5SCC6NC(=O)NC65)[C@H]([C@@H]3C=C(CO)C[C@]2(O)C1=O)C4(C)C	IIIB	-	p24 / ELISA	>200 µM
CCN1c2ncc(CCOc3ccc(-c4ccc(CC(=O)O)cc4)cc3CO)cc2C(=O)N(C)c2cccnc21	-	RT-K103N Y181C	p24	0.01–0.05 µM
CC(=O)OCC1=C[C@H]2[C@@H]3C(C)(C)[C@]3(OC(C)=O)[C@H](OC(=O)/C=C/c3ccc4c(c3)OCO4)[C@@H](C)[C@]2(O)[C@@H]2C=C(C)C(=O)[C@@]2(O)C1	IIIB	-	p24 / ELISA	0.2101 µM
CCc1ccc(-c2c(C(OC(C)(C)C(F)(F)F)C(=O)O)c(C)nc3ccc(Cl)cc23)cc1	-	-	luciferase / reporter gene	<20 µM
CCN1c2ncc(CCOc3ccc(C(=O)N4CCC(C(=O)O)CC4)cc3C)cc2C(=O)N(C)c2cccnc21	IIIB	-	p24	0.01–0.05 µM

Again, the opening 2 rows:

| SMILES | strain | mutations | read by | value |
|---|---|---|---|---|
| CC(=O)O[C@@]12[C@H](OC(=O)/C=C/c3ccc4c(c3)OCO4)[C@@H](C)[C@@]3(O)[C@@H](C=C(CO)C[C@]4(O)C(=O)C(C)=C[C@@H]34)[C@@H]1C2(C)C | IIIB | - | p24 / ELISA | 0.0225 µM |
| CCN1c2ncc(CCOc3ccc(-c4ccc(C(=O)O)o4)cc3C)cc2C(=O)N(C)c2cccnc21 | - | RT-K103N Y181C | p24 | >0.05 µM |

Lines come from different laboratories, so protocols vary. ECn: concentration that inhibits the pathogen or its effect by n%. a–b is a range or a potency band.